Chains of the proteins cited; added tags and fusions are not shown. Residues count along the entry.
UniProt Q962Y6, 1-598: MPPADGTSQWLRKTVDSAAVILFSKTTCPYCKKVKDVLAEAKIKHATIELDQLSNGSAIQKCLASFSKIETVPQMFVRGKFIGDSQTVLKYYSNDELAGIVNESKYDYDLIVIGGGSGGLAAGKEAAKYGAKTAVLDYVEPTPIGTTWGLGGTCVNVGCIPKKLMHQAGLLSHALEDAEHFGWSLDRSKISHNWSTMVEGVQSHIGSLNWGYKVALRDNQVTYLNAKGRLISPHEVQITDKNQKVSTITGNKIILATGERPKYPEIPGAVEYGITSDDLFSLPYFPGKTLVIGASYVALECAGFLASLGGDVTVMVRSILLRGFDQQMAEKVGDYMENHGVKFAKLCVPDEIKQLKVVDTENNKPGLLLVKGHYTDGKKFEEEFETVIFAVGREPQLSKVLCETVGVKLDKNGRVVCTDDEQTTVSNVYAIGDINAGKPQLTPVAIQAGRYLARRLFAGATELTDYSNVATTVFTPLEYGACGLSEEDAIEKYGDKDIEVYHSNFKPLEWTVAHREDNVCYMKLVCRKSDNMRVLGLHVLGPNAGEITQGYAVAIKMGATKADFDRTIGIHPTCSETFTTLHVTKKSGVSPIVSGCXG

According to PMC4560900, “High-throughput screening against thioredoxin glutathione reductase identifies novel inhibitors with potential therapeutic value for schistosomiasis” (Infectious Diseases of Poverty, 2015):

Experiments:
[1] = system: larval worms (schistosomula); experiment: Ex vivo cidal activity against cultured larval parasites (schistosomula); settings: tested at 50, 25, 12.5, 6.25 and 3.125 μM, n.a. = no activity
adult worms = experiment: Ex vivo cidal activity against adult worms; settings: tested at 10 and 5 μM, n.a. = no activity
[2] = biological target: Thioredoxin glutathione reductase from S. mansoni (SmTGR) (Schistosoma mansoni, UniProt Q962Y6); experiment: Endpoint SmTGR fluorescence (ThioGlo) assay; type: biochemical; settings: inhibition of SmTGR; for Efficacy (%): 30 μM naphthazarin defined as 100 % inhibition, means ± SEM; for IC50: means ± SEM of at least three independent experiments

| SMILES | Larva: lowest concentration resulting in 100 % larval death at 48 hours [1] | Adult: lowest concentration resulting in 100 % worm death on day seven (adult worms) | Efficacy (%) [2] | IC50 [2] |
| --- | --- | --- | --- | --- |
| O=[N+]([O-])c1ccc2c(c1)S(=O)(=O)C=C2 | 3.125 µM | 10 µM | 98.09 ± 1.56% | – |
| COc1ccc(CN2C(=O)C=CC2=O)cc1 | 25 µM | – | 98.48 ± 1.48% | 1.45 µM |
| O=c1c(Cl)c(-n2cc(CO)nn2)cnn1-c1ccccc1 | 3.125 µM | 10 µM | 78.85 ± 2.35% | 6.3 µM |
| COCc1cc(C)nc(OCC(=O)NN=Cc2cc(I)cc(I)c2O)c1C#N | 50 µM | – | 97.08 ± 1.53% | 0.957 µM |
